# In publication PMC7064754:
# The exact form of at least one protein or probe is not confirmed. For some assays here: Results from cells or extracts need not show a direct contact. At least one verdict rests on a figure or table, not on a statement of the authors.
# How the values were obtained:
# [1] = system: MCPyV large T antigen (LT-Ag), wild type (Merkel cell polyomavirus); assay: EMSA; conditions: 5 mM AMP-PNP, EMSA: 30 mM Tris-HCl pH 8.0, 10% glycerol, 25 ng/ul BSA, 3 ng/ul sonicated sperm DNA, 0.5 ng/ul poly(dI-dC), 1 mM PMSF, 20 min, room temperature, protein in a lysate after overexpression, label: 5' 32P
# [2] = system: MCPyV large T antigen (LT-Ag), wild type (Merkel cell polyomavirus); assay: DPI-ELISA; conditions: HEK293 nuclear extract; protein in a lysate after overexpression; label: 3' biotin-TEG on strand 1
# [3] = system: SBP-tagged MCPyV LT-Ag, purified (Merkel cell polyomavirus); assay: DPI-ELISA; conditions: recombinant protein, protein details: SBP (streptavidin-binding peptide), label: 3' biotin-TEG on strand 1
Sequence,binding result ([1]; nuclear extract of HEK293 Con cells),binding result ([1]; nuclear extract of HEK293 Kap1 knockout cells),binding result [2],binding result ([3]; LT purified from HEK293 Con cells),"binding result ([3]; LT purified from HEK293 Kap1 knockout cells, binding unchanged)"
AATTCAAGTTGGCAGAGGCTTGGGGCTCCTAGCCTCCGAGGCCTCTGGAAAAAAAAGAGAGAGGCCTCTGAGGCTTAAGAGGCTTAATTAG / AATTCTAATTAAGCCTCTTAAGCCTCAGAGGCCTCTCTCTTTTTTTTCCAGAGGCCTCGGAGGCTAGGAGCCCCAAGCCTCTGCCAACTTG [MCPyV ori EMSA probe (ori1/ori2)],binds,binds,,,
"TAATTAAGCCTCTTAAGCCTCAGAGGCCTCTCTCTTTTTTTTCCAGAGGCCTCGGAGGCTAGGAGCCCCAAGCCTCTGCC (double strand) [MCPyV minimal ori, biotinylated (ori_bio1/ori_unbio2)]",,,binds,binds,binds
